Anti-infective test results gathered from many reports (values: NIAID ChemDB through PubChem).

Shared fields: tests in culture; agent: Mycobacterium tuberculosis

MIC bound comes from a single tested concentration.

structure,cell line,dose,read by,strain,measure,result
CC(=O)Nc1ccc2[nH]c(C)cc(=O)c2c1,-,12.5 µg/mL,BACTEC,H37Rv,inhibition,-11%
CCCCCCCCCCCNCCNCc1ccco1,-,-,-,-,MIC,50 µM
COc1ccc(C2OC(=O)c3c2ccc(OC)c3OC)cc1OC,-,-,-,H37Rv,MIC,>100 µg/mL
COc1cccc2c1C(=O)c1c(O)c3c(c(O)c1C2=O)C[C@@](O)(/C(C)=N/NC(=O)NN)C[C@@H]3OC1CC(N)C(O)C(C)O1.Cl,-,12.5 µg/mL,BACTEC,H37Rv,inhibition,12%
C=CCN(CCNCCc1ccccc1Cl)C1CCCC1,-,-,-,-,MIC,12.5 µM
C/C(=N/NC(=S)N1CCN(c2ccccc2)CC1)c1cnccn1,-,6.25 µg/mL,resazurin,H37Rv,inhibition,68%
CCOC(=O)c1cccc(-c2ccccc2NC(C)=O)c1,-,-,-,H37Rv,MIC,>100 µg/mL
CC(C)c1ccc2c(c1)CCC1C2(C)CCCC1(C)C(O)c1ccccc1,-,-,BACTEC,H37Rv,MIC bound,≤12.5 µg/mL
O=[N+]([O-])c1cccc(P(=O)(c2cccc([N+](=O)[O-])c2)c2cccc([N+](=O)[O-])c2)c1,-,-,-,H37Rv,MIC,>100 µg/mL
CCCOC(=O)Nc1cc(NC(c2ccccc2)c2ccccc2)c2nc(-c3cc(OC)c(OC)c(OC)c3)c(-c3cc(OC)c(OC)c(OC)c3)nc2n1,-,12.5 µg/mL,-,H37Rv,inhibition,0%
NC(=O)CS(=O)CC(N)C(=O)O,-,-,resazurin,H37Rv,MIC bound,>6.25 µg/mL
CNc1nc(Cl)nc(N(C)C)n1,-,-,-,H37Rv,MIC,>100 µg/mL
COc1ccc(CCNCCNC(C)(C)CO)cc1,-,-,-,-,MIC,50 µM
CO[C@H]1/C=C/O[C@@]2(C)Oc3c(C)c(O)c4c(O)c(c(/C=N/N5CCN(C/C=C/c6ccccc6)CC5)c(O)c4c3C2=O)NC(=O)/C(C)=C\C=C\[C@H](C)[C@H](O)[C@@H](C)[C@@H](O)[C@@H](C)[C@H](OC(C)=O)[C@@H]1C,-,-,-,2749 (rifampin-sensitive),MBC,0.2 µg/mL
c1ccc(C(CNCCNCCN2CCOCC2)c2ccccc2)cc1,-,-,-,-,MIC,25 µM
C[C@@H]1[C@H]2C[C@@H](C[C@H]1NCCNC1CCCCCCC1)C2(C)C,-,-,-,-,MIC,6.25 µM
CC(=O)NC1C(OC(C)=O)OC(COC(c2ccccc2)(c2ccccc2)c2ccccc2)C(O)C1OC(C)=O,-,12.5 µg/mL,BACTEC,H37Rv,inhibition,13%
Nc1ccc(N=Nc2ccc(S(=O)(=O)O)cc2)cc1,-,-,-,H37Rv,MIC,>100 µg/mL
CN[C@@H]1[C@H](O[C@H]2[C@H](O[C@H]3[C@H](O)[C@@H](O)[C@H](N=C(N)N)[C@@H](O)[C@@H]3N=C(N)N)O[C@@H](C)[C@]2(O)C=O)O[C@@H](CO)[C@H](O)[C@H]1O,-,-,-,TN3360 (W),MIC,>2 µg/mL
O=C1CC(c2ccccc2)Oc2ccc(Cl)cc21,-,-,-,-,EC50,>12.5 µg/mL
CCCCCCCCCCCNCCNCc1ccc(F)cc1,-,-,-,-,MIC,50 µM
COC(=O)c1nccnc1N,-,-,BACTEC,H37Rv,MIC bound,>12.5 µg/mL
Nc1ccc(NC(=O)Nc2ccccc2)cc1,-,-,-,H37Rv,MIC,>100 µg/mL
CO[C@H]1/C=C/O[C@@]2(C)Oc3c(C)c(O)c4c(=O)c(c5oc6cc(N7CCN(CC(C)C)CC7)cc(=O)c6nc5c4c3=C2O)NC(=O)/C(C)=C\C=C\[C@H](C)[C@H](O)[C@@H](C)[C@@H](O)[C@@H](C)[C@H](OC(C)=O)[C@@H]1C,-,-,-,3064 (rifampin-sensitive),MIC,0.012 µg/mL
CCOCCCNCCNC[C@@H]1CC[C@H]2C[C@@H]1C2(C)C,-,-,-,-,MIC,50 µM
CC(=O)CN(C)c1ccccc1,-,-,-,H37Rv,MIC,>100 µg/mL
Cc1nc2ccc(Br)cc2c(=O)n1NC(=O)c1cc(-c2ccccc2)nc2ccccc12,-,6.25 µg/mL,resazurin,H37Rv,inhibition,6%
CCN(CC)CCCNc1ccc([N+](=O)[O-])cc1.Cl,-,-,-,H37Rv,MIC,>100 µg/mL
S=c1nc2[nH]c3ccccc3c2n[nH]1,-,12.5 µg/mL,BACTEC,H37Rv,inhibition,-15%
Cc1ccc(CNCCNCc2ccccc2F)cc1,-,-,-,-,MIC,50 µM
c1ccc(C(CCNCCNC(c2ccccc2)c2ccccc2)c2ccccc2)cc1,-,-,-,-,MIC,25 µM
Br.CCOc1cc(NCCCOc2ccccc2)c2ncccc2c1,-,-,-,H37Rv,MIC,25 µg/mL
COc1ccc(OC)c(CCNCCNCc2ccccc2Sc2ccccc2CO)c1,-,-,-,-,MIC,50 µM
COc1ccc2nc3cc(Cl)ccc3c(NCCNCCO)c2c1,-,-,-,H37Rv,MIC,>100 µg/mL
CCOC(=O)Nc1cc(NC(C)C(C)c2ccc3c(c2)OCO3)c([N+](=O)[O-])c(N)n1,-,12.5 µg/mL,-,H37Rv,inhibition,8%
O=C1C[C@@H](c2ccc(O)cc2)Oc2cc(O)c(-c3c(O)cc4c(c3O)C(=O)C[C@@H](c3ccc(O)cc3)O4)c(O)c21,-,12.5 µg/mL,-,-,inhibition,0%
COc1cc2c(cc1OC)-c1c3c(cc4c1[C@@H](C2)N(C)CC4)OCO3,-,12.5 µg/mL,BACTEC,H37Rv,inhibition,27%
CCOC(=O)Nc1cc(N(C)C/C(=N\O)c2ccc(OC)cc2)c([N+](=O)[O-])c(N)n1,-,-,-,H37Rv,EC50,>12.5 µg/mL
NCC[C@H](O)C(=O)N[C@@H]1C[C@H](N)[C@@H](O[C@H]2O[C@H](CN)[C@@H](O)[C@H](O)[C@H]2O)[C@H](O)[C@H]1O[C@H]1O[C@H](CO)[C@@H](O)[C@H](N)[C@H]1O,-,-,broth dilution / resazurin,MDR14,MIC,2 µg/mL
CCOC(=O)c1cnc2c(ccc3ncccc32)c1Cl,-,12.5 µg/mL,BACTEC,H37Rv,inhibition,2%
CN(C)C(=O)c1cnc2ccccc2c1.Cl,-,-,-,H37Rv,MIC,>100 µg/mL
CCCC1C(C(=O)OCC)C(=O)NC1(C(=O)OCC)C(=O)OCC,-,12.5 µg/mL,BACTEC,H37Rv,inhibition,20%
CC(C)c1ccc2c(c1)CC[C@H]1[C@](C)(CNCCNCCCCO)CCC[C@]21C,-,-,-,-,MIC,50 µM
CC(=O)NC1C(C2COC(C)(C)O2)OC2OC(C)(C)OC21,-,12.5 µg/mL,BACTEC,H37Rv,inhibition,19%
O=C1C=Cc2ccccc2C1=O,-,-,-,H37Rv,MIC,50 µg/mL
O=C(/C=C/c1ccccc1)c1cccc(I)c1O,-,12.5 µg/mL,-,H37Rv,inhibition,0%
N#Cc1nc(-c2cccnc2)oc1N,-,-,resazurin,H37Rv,MIC bound,>6.25 µg/mL
O=Cc1ccccc1OCC(=O)O,-,-,-,H37Rv,MIC,50 µg/mL
COc1ccc(C2CC(=O)c3ccc(OC)cc3O2)cc1,-,12.5 µg/mL,-,H37Rv,inhibition,0%
C[P+]1(C)CCc2c1ccc1ccccc21,VERO,-,-,H37Rv,MIC,>6.25 µg/mL
O=C(O)c1ccc([N+](=O)[O-])cc1O,-,-,-,H37Rv,MIC,100 µg/mL
CCOC(=O)Nc1cc(Nc2ccc(Cl)cc2)c2nc(-c3ccccc3)c(-c3ccccc3)nc2n1,-,-,-,H37Rv,EC50,>12.5 µg/mL
CCCCCCCCCCCCS(=O)(=O)c1ccc(NC(C)=O)cc1,-,-,-,H37Rv,MIC,>100 µg/mL
O=[N+]([O-])/C=C/c1cc2c(ccc3ccccc32)[nH]1,-,6.25 µg/mL,resazurin,H37Rv,inhibition,98%
CCOC(=O)Nc1cc2oc(-c3cc(OC)c(OC)c(OC)c3)nc2c(N(CCc2ccccc2)Cc2ccccc2)n1,-,-,-,H37Rv,EC50,>12.5 µg/mL
CCC(=O)OC1CCn2c1nc1c2C(=O)C(C)=C(NC(C)=O)C1=O,-,12.5 µg/mL,BACTEC,H37Rv,inhibition,0%
CCCCCCCCCCCCCCCCCCNCCNC12CC3CC(CC(C3)C1)C2,-,-,-,-,MIC,25 µM
O=C(CC(=O)c1ccccc1C(=O)c1ccccc1)Nc1ccccc1,-,-,-,H37Rv,MIC,>100 µg/mL
CC1(C)[C@H]2CC[C@@H](CNCCNCCN3CCOCC3)[C@@H]1C2,-,-,-,-,MIC,50 µM
c1ccc(NNc2ccccc2)cc1,-,-,-,H37Rv,MIC,50 µg/mL
NC(=O)NC(=O)C1C2CC3OC(=O)C1C3C2,-,12.5 µg/mL,BACTEC,H37Rv,inhibition,18%
O=C(COc1ccc([As](=O)(O)O)cc1)c1ccccc1,-,-,-,H37Rv,MIC,>100 µg/mL
CC(C)=CCC/C(C)=C/CNCCNCCc1ccc(Cl)cc1Cl,-,-,-,-,MIC,50 µM
O=c1cc(CO)occ1O,-,-,-,H37Rv,MIC,100 µg/mL
CC1CCC(NCCNC[C@@H]2CC[C@H]3C[C@@H]2C3(C)C)CC1,-,-,-,-,MIC,12.5 µM
O=C(O)c1nn(Cc2ccc(Br)cc2Br)c2ccccc12,-,12.5 µg/mL,BACTEC,H37Rv,inhibition,98%
CCCCC(CC)CN1CN(CC(CC)CCCC)CC(C)(NCCNC/C=C(\C)CCC=C(C)C)C1,-,-,-,-,MIC,50 µM
CCCCC(CC)CN1CN(CC(CC)CCCC)CC(C)(NCCN[C@@H]2C[C@@H]3C[C@H]([C@H]2C)C3(C)C)C1,-,-,-,-,MIC,50 µM
COc1ccc(C2c3c(-c4ccccc4)nn(-c4ccccc4)c3Oc3ncn(N)c(=N)c32)cc1OC,-,6.25 µg/mL,resazurin,H37Rv,inhibition,31%
NC(=O)NC(N)=O,-,-,-,H37Rv,MIC,>100 µg/mL

For reference, 9 entries again:

structure | cell line | dose | read by | strain | measure | result
O=C1CC(c2ccccc2)Oc2ccc(Cl)cc21 | - | - | - | - | EC50 | >12.5 µg/mL
Cc1nc2ccc(Br)cc2c(=O)n1NC(=O)c1cc(-c2ccccc2)nc2ccccc12 | - | 6.25 µg/mL | resazurin | H37Rv | inhibition | 6%
CCOC(=O)Nc1cc(Nc2ccc(Cl)cc2)c2nc(-c3ccccc3)c(-c3ccccc3)nc2n1 | - | - | - | H37Rv | EC50 | >12.5 µg/mL
C[P+]1(C)CCc2c1ccc1ccccc21 | VERO | - | - | H37Rv | MIC | >6.25 µg/mL
c1ccc(NNc2ccccc2)cc1 | - | - | - | H37Rv | MIC | 50 µg/mL
CNc1nc(Cl)nc(N(C)C)n1 | - | - | - | H37Rv | MIC | >100 µg/mL
O=C(COc1ccc([As](=O)(O)O)cc1)c1ccccc1 | - | - | - | H37Rv | MIC | >100 µg/mL
CCOC(=O)Nc1cc(NC(C)C(C)c2ccc3c(c2)OCO3)c([N+](=O)[O-])c(N)n1 | - | 12.5 µg/mL | - | H37Rv | inhibition | 8%
CCCCC(CC)CN1CN(CC(CC)CCCC)CC(C)(NCCNC/C=C(\C)CCC=C(C)C)C1 | - | - | - | - | MIC | 50 µM

Percent inhibition refers to the dose given; in toxicity tests it is the harm to the cells. Blank or dashed fields: not listed here. ECn is the concentration giving n% inhibition of infection, replication or growth. Conditions beyond the fields shown may differ between rows.